Assay results: US11802258B2, “Perfume precursor” (TAKASAGO INTERNATIONAL CORPORATION, priority 2017, dated 2023)

Key:
Assay type in all cases: cell-based
Conditions in all cases: compound released, GC/MS of head space
[1] = system: Moraxella osloensis ATCC19976; assay: Scent emission test by microorganism, Moraxella osloensis
Procedure: (§1) Culture of Staphylococcus aureus strain NBRC12732, Corynebacterium xerosis strain JCM1324, Pseudomonas aeruginosa strain NBRC13275, and Moraxella osloensis strain ATCC19976:
(§2) After inoculating each of bacteria in Muller-Hinton liquid medium, shaking culture was performed at 30° C. for 20 hours, and 3 mL of the resulting preculture solution was transferred to a vial bottle. 10 mg of each of the fragrance precursors was mixed therewith and after hermetical sealing, shaking culture was further performed at 30° C. for 20 hours.
(§3) A peak area of the scent-emitting compound was obtained by performing GC/MS analysis of the head space component included in the vial bottle containing 3 mL of a microorganism culture solution in which 10 mg of the fragrance precursor was mixed. A microorganism culture solution having not mixed therein the fragrance precursor was used as the control, and a peak area of the control was obtained by the same method. The scent emission amount was determined from the difference between the obtained peak area of the scent-emitting compound and the peak area of the control.
(§4) Measurement instrument: 7890GC/5975MSD (manufactured by Agilent Technologies) • Column: BC-WAX 50 m×0.25 mm I.D. • Temperature rise: 70° C. to 220° C., 4° C./min • Split ratio: splitless

[2] = system: Propionibacterium acnes JCM6473; assay: Scent emission test by microorganism, Propionibacterium acnes
Procedure: Culture of Propionibacterium acnes Strain JCM6473:
After inoculating the bacterium in GAM bouillon liquid medium containing Hemin 0.5 ppm and Menadione 0.5 ppm, static culture was performed at 28° C. for 3 days under anaerobic conditions, and 3 mL of the resulting preculture solution was transferred to a vial bottle. 10 mg of each of the fragrance precursors was mixed therewith and after hermetical sealing, static culture was further performed at 28° C. for 3 days.
as §3, §4

[3] = system: Malassezia furfur NBRC0656; assay: Scent emission test by microorganism, Malassezia furfur
Procedure: Culture of Malassezia furfur Strain NBRC0656:
After inoculating the bacterium in Sabouraud liquid medium containing 0.1% Tween 80, static culture was performed at 28° C. for 3 days under anaerobic conditions, and 3 mL of the resulting preculture solution was transferred to a vial bottle. 10 mg of the fragrance precursor was mixed therewith and after hermetical sealing, static culture was further performed at 28° C. for 3 days.
as §3, §4

[4] = system: Staphylococcus aureus NBRC12732; assay: Scent emission test by microorganism, Staphylococcus aureus
Procedure: as §1, §2, §3, §4

Row | SMILES | Scent-Emitting Compound [1] | Scent-Emitting Compound [2] | Scent-Emitting Compound [3] | Scent-Emitting Compound [4]
1 | C=CCCCCCCCCOC(=O)c1ccccc1 [Example 14, 9-decenyl Benzoate] | 9-decenol | 9-decenol | 9-decenol | 
2 | CC(C)=CCC/C(C)=C/COC(=O)c1ccccc1 [geranyl benzoate] |  | geraniol | geraniol | geraniol
3 | CC/C=C\CCOC(=O)c1ccccc1O [(Z)-3-hexenyl salicylate] |  |  |  | (Z)-3-hexenol
4 | O=C(C=Cc1ccccc1)OCCc1ccccc1 [phenylethyl cinnamate] |  | phenylethyl alcohol | phenylethyl alcohol | phenylethyl alcohol
